# Library screen at single concentrations

Mtb glucose medium: 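Growth of Mycobacterium tuberculosis over 3 days (7H9 medium with glucose and tyloxapol); the read-out is not stated. Compounds at 500 µM. Direction is inferred from retests: higher values go with more growth inhibition. Size under these conditions: about 18,000 compounds, about 1,400 of them at 50% or above in at least one test.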
Mtb cholesterol medium: 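Phenotypic screen: M. tuberculosis growth, cholesterol and DPPC medium, 4 days; the read-out is not stated. Concentration: 500 µM. The record gives no direction; compounds that gave an IC50 in retests scored well above the rest, so higher reads as more growth inhibition. About 18,000 compounds were tested under these conditions; 5% (about 900) showed 50% or more at least once.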

The filed quantity is “Percent Effect” (%). The record does not define 0% and 100%; most values in the screen are far below 50% and negative numbers occur (in some assays of this library far below -100). The entries come from a sample that favours strong results. A dash means the value is not listed here; it may have been measured.

Compound,Mtb glucose medium,Mtb cholesterol medium
Cc1nc(CCN2CCc3c(c(CO)nn3C)C2)cs1,-8.188,-
O=C(CN1CCN(C(=O)c2ccco2)CC1)NC1CC1,13.24,-
Cc1n[nH]cc1CNC(C)CO (centres unmarked),-2.67,-
Cc1ccccc1C1(O)CCNCC1,-5.376,-
CC(C)(C(=O)NCc1nnc[nH]1)c1cccc(Cl)c1,-,14.8
CN1CCc2nc(NC(=O)c3cncc(Br)c3)sc2C1,-11.23,-4.042
COCCNC(=O)CN1CCCC(C)C1 (centres unmarked),7.009,-
CCC(CC)C(=O)Nc1ccon1,-,11.9
Cn1ncnc1NC(=O)c1ccc(Br)cn1,-,15.83
CCN1CC(C(=O)N2CCc3ccccc3C2)CC1=O (centres unmarked),12.39,-
O=C1COCC2(CC2)N1,-,3.331
CC(C)CS(=O)(=O)NCc1ccc2c(c1)OCO2,72.54,59.95
CNC(=O)C1CCCN1C(=O)C(C)(C)C (centres unmarked),5.895,-
CNC(=O)c1ccc(Cl)c(S(=O)(=O)N2CCCCC2)c1,53.51,-
O=C(NCc1ccc(Br)o1)[C@@H]1CCCO1,62.05,-
Cc1cc(C(C)NC(=O)CN2CSCC2=O)c(C)s1 (centres unmarked),56.28,-
CSCC(=O)N1C[C@@H](CN2CCCCCC2)[C@@H](CO)C1,-48.75,-
Cc1cc(NC(C)CN2CCOCC2)ncc1Br (centres unmarked),54.82,-
CCc1cc(CNC(=O)c2ccc(F)c(F)c2)[nH]n1,70.12,71.76
CC(C)CCC(=O)N1CCNCC1,-,2.558
COC(=O)CN(CCn1cncn1)C1CCCC1,-5.218,-
CNC(=O)c1cccc(NCc2cccnc2)n1,5.019,10.7
Brc1ccc2c(c1)OCCNC2,60.91,53.73
O=C(NC1CCCc2occc21)c1cccnc1 (centres unmarked),58,-
Cc1cc(CC(=O)NCCSc2nnc(C)s2)on1,0.2079,-
COCCCN1CCC(CNc2ncncn2)C1 (centres unmarked),-,11.9
NC1CC(=O)N(Cc2ccccc2C(F)(F)F)C1 (centres unmarked),-,8.657
N#Cc1nnc(-c2ccccc2)o1,28.03,-
CC(CC(=O)N1CCOCC1)NC(=O)c1ccccc1 (centres unmarked),-,22.82
COCC1CNCCO1 (centres unmarked),-,-6.68
O=C1CN(CCOc2ccc3ccccc3c2)CCN1,32.45,-
CCn1cncc1C1CCCCN1 (centres unmarked),12.12,-
C[S+]([O-])C1(CNC(=O)c2ccnc3ccccc23)CC1 (centres unmarked),9.518,-
CN1CCC(CNC(=O)CNS(=O)(=O)c2cccs2)C1 (centres unmarked),18.44,-
Nc1nnc(SCc2ccc(Cl)s2)[nH]1,52.16,61.13
N#CC1(NC(=O)c2ccncc2Cl)CCSCC1,5.539,-
CCNC(=O)CNC,-2.414,-
CCC(N)(CC)CNS(=O)(=O)c1cccc(C(C)=O)c1,-,-11.02
Cn1cnnc1SCCNC(=O)c1ccncc1F,4.17,-
Cc1ncc(S(C)(=O)=O)c(NCc2snnc2C)n1,10.5,-
CCOc1cc(NCc2ncc(C)o2)ncn1,59.04,40.46
CC(C(=O)NCc1cccs1)S(=O)(=O)C1CCCC1 (centres unmarked),54.76,-
COCCCOC1CN(C(=O)c2cc(F)ccc2C)C1,49.06,23.23
COCc1n[nH]c(N)c1-c1ccc(OC)cc1,30.76,-
Fc1cccc2c1CNCCO2,0.9823,-
CCCc1nc(CN(CC)C(=O)[C@@H]2CCC(=O)N2)no1,2.855,-
CCN(C(=O)CSc1nncs1)C1CCS(=O)(=O)C1 (centres unmarked),7.672,-
CC(CNC(=O)N[C@@H](C)C(=O)N(C)C)Cc1cccs1 (some centres unmarked),79.91,65.62
COC(=O)c1ccc(C)c(CO)c1,17.94,-
CCOC(=O)CSCN1C(=O)c2ccccc2C1=O,-7.695,-1.024
NCc1ccc(C(=O)NCCN2CCCC2)cc1,-8.209,-
O=C(NCC(O)c1c(F)cccc1F)c1cc(Br)c[nH]1 (centres unmarked),-,-17.34
NC1CCCN(Cc2ccccc2)C1 (centres unmarked),-,51.65
COc1ccc(NC(=O)N2CCOCC2C)cc1 (centres unmarked),18.32,-
CC(C)OCCCNC(=O)c1ccc(S(N)(=O)=O)cc1,38.68,0.1337
Cc1cc(C)c(C)c(OCC(=O)N2CCN(C)CC2)c1,70.92,59.61
N[C@@H]1C[C@H]1c1ccccc1F,0.8473,-
COc1cccc(CC2(O)CCNCC2)c1,-,-5.09

Repeated from the top, 7 entries:

Compound,Mtb glucose medium,Mtb cholesterol medium
Cc1nc(CCN2CCc3c(c(CO)nn3C)C2)cs1,-8.188,-
O=C(CN1CCN(C(=O)c2ccco2)CC1)NC1CC1,13.24,-
Cc1n[nH]cc1CNC(C)CO (centres unmarked),-2.67,-
Cc1ccccc1C1(O)CCNCC1,-5.376,-
CC(C)(C(=O)NCc1nnc[nH]1)c1cccc(Cl)c1,-,14.8
CN1CCc2nc(NC(=O)c3cncc(Br)c3)sc2C1,-11.23,-4.042
COCCNC(=O)CN1CCCC(C)C1 (centres unmarked),7.009,-

Measurements from “University of Dundee, Small-Polar-MMV Screening Library” (2021), ChEMBL document CHEMBL3988442.